In the assay the target is T1, C-PTX3.
T1 sequence: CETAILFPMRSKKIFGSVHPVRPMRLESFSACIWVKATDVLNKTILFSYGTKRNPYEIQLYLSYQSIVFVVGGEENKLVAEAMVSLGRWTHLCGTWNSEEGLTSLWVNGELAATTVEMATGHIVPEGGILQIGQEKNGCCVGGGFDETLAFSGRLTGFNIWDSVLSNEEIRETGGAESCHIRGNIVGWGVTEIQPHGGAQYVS

In the case of “Biotinylated SARS-CoV-2 Nucleocapsid protein, His Tag”, the EC50 (read off the curve) (commonly the concentration at which the effect is half-maximal) came out at 5 nM.

Values taken from patent US20240123029.
